Measured values from several laboratories, pooled; numbers as filed in NIAID ChemDB.

All rows: growth or infection tests; agent: Influenza B virus

ECn: concentration that inhibits the pathogen or its effect by n%.

smiles,tested at,method,read-out,cells,strain,result
CCC(CC)[C@H](NC(C)=O)[C@@H]1C[C@@H](C(=O)O)C[C@H]1N=C(N)N,,,EC50,MDCK,Panama/45/90,2.8 µM
CC1=C(C)C2C(N)C1[C@H](C(C)C)C[C@H]2C,,plaque count,EC50,MDCK,,34 µM
COC1(OC)CC(CO)(CNc2cc(Cl)nc(N)n2)C1,,plaque count,EC50,MDCK,B/GIFU/2/73,>99 µM
C[C@H]1CC2CCCC1C2N,,plaque count,EC50,MDCK,,55 µM
Nc1nc(Cl)c(C=O)c(NCC2(CO)CC(CCc3ccccc3)C2)n1,,plaque count,EC50,MDCK,B/GIFU/2/73,7.5–9.6 µM
CC12CCCC(CC1)C2N,,plaque count,EC50,MDCK,,>100 µM
[N-]=C=Nc1nncs1,1 µg/mL,virus yield,inhibition,MDCK,B/Virginia/88,90%
CCCC(CCC)C(NC(C)=O)C1CC(C(=O)O)CC1N=C(N)N,,,EC50,MDCK,Beijing/184/93,0.02 µM
Nc1nc(Cl)cc(NCC2(CO)CC(=O)C2)n1,,plaque count,EC50,MDCK,B/GIFU/2/73,>120 µM
CCC(CC)O[C@@H]1C=C(C(=O)O)C[C@H](N)[C@H]1NC(C)=O,,plaque count,EC50,MDCK,Isolate G26,0.05 µg/mL
CC1=C(C)C2CCCC1C2N,,plaque count,EC50,MDCK,,>100 µM
N#Cc1cnc(N)nc1NCC1(CO)CC(CCc2ccccc2)C1,,plaque count,EC50,MDCK,B/GIFU/2/73,2.1–2.4 µM
CCCC(CCC)C(NC(C)=O)C1C(N=C(N)N)CC(C(=O)O)C1O,,,EC50,MDCK,Beijing/184/93,0.02 µM
C[C@H]1C2CCCC(C)(C2N)[C@H]1C,,plaque count,EC50,MDCK,,64.3 µM
CCC(CC)[C@H](NC(C)=O)[C@@H]1[C@H](O)[C@@H](C(=O)O)C[C@H]1N=C(N)N,,,EC50,MDCK,Panama/45/90,2.3 µM
Nc1nc(Cl)cc(NCCCO)n1,,plaque count,EC50,MDCK,B/GIFU/2/73,>490 µM
CC1=C(C)C2C(N)C1CC[C@@H]2C,,plaque count,EC50,MDCK,,~20 µM
Nc1nccc(NCC2(CO)CC(CCc3ccccc3)C2)n1,,plaque count,EC50,MDCK,B/GIFU/2/73,9–14 µM
NC12CC3CC(CC(C3)C1)C2,46.8 µg/mL,plaque count,inhibition,CEF,B/LEE,0%

Rows are shuffled and stem from different studies. a–b is a range or a potency band. Inhibition is in % at the dose shown (toxicity tests: loss of growth or viability). An empty or dashed field is not shown.